## Mutational tolerance of the Zika virus NS2B-NS3 protease

Data from the supplement of Ni et al. 2025, doi:10.1038/s41467-025-63602-z.

The scanned region of Zika virus MR766 is shown below (positions 1-308): NS2B is 2-131, NS3 begins at position 132.
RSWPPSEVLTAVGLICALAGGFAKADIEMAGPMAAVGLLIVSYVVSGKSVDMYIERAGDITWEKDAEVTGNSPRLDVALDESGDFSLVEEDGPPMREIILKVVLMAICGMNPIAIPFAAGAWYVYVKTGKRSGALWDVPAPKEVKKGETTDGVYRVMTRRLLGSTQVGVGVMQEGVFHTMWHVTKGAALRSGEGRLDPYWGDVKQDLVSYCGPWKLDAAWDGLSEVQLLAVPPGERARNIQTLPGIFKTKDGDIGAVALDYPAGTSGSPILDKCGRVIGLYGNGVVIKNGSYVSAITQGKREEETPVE

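Libraries of single mutants were passaged as virus pools on Huh-7.5 cells. Sequencing of three replicate libraries (two for positions 207-308) was averaged into one effect per change. The aim was to find sites where inhibitor-binding pockets cannot change.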

The number is log2 of the effect relative to wild type; negative values mean reduced growth, higher values better tolerance.
Each entry names the wild-type residue, its position and the residue put in its place.

| # | change | effect (log2) |
|---|---|---|
| 1 | V8W | -4.38 |
| 2 | A11Q | -5.78 |
| 3 | L14I | -0.73 |
| 4 | L14N | -5.85 |
| 5 | L14T | -0.67 |
| 6 | K24* | -7.63 |
| 7 | E28N | -3.32 |
| 8 | P32F | -4.80 |
| 9 | P32G | -6.52 |
| 10 | L38E | -5.99 |
| 11 | V41D | -5.40 |
| 12 | V44L | -5.83 |
| 13 | V45C | -4.22 |
| 14 | G47E | -4.98 |
| 15 | G47Q | -5.40 |
| 16 | G47W | -6.26 |
| 17 | K48A | -6.06 |
| 18 | Y53P | -7.55 |
| 19 | Y53W | -3.30 |
| 20 | I54A | -6.85 |
| 21 | A57P | -6.80 |
| 22 | A57Y | -0.16 |
| 23 | I60* | -7.90 |
| 24 | R74Y | -5.61 |
| 25 | L75R | -8.04 |
| 26 | L79M | -5.10 |
| 27 | L87N | -6.25 |
| 28 | L87W | -6.84 |
| 29 | V88L | 0.51 |
| 30 | E90Q | 0.00 |
| 31 | P94L | -2.55 |
| 32 | I98* | -7.59 |
| 33 | I99S | -5.05 |
| 34 | L100S | -4.39 |
| 35 | V102G | 0.23 |
| 36 | V103K | -4.85 |
| 37 | A106Y | -4.13 |
| 38 | G109F | -5.57 |
| 39 | P116A | -5.99 |
| 40 | P116Y | -5.10 |
| 41 | A118N | -5.85 |
| 42 | A118S | -0.08 |
| 43 | A119P | -6.92 |
| 44 | G120T | -0.75 |
| 45 | K130W | -5.69 |
| 46 | R131G | -6.65 |
| 47 | S132P | -6.73 |
| 48 | W136S | -7.89 |
| 49 | D137L | -7.68 |
| 50 | P139* | -5.81 |
| 51 | K146E | -3.16 |
| 52 | D151G | -4.11 |
| 53 | M157N | -4.87 |
| 54 | M157V | -1.01 |
| 55 | R159Q | -3.72 |
| 56 | R160I | -4.28 |
| 57 | S164G | -2.03 |
| 58 | V167C | -0.94 |
| 59 | G175W | -4.79 |
| 60 | H178D | -5.18 |
| 61 | T179S | -1.06 |
| 62 | H182G | -5.16 |
| 63 | H182I | -3.43 |
| 64 | T184Q | -5.78 |
| 65 | R190L | -7.00 |
| 66 | E193S | -0.69 |
| 67 | D197H | -4.65 |
| 68 | D197T | -1.83 |
| 69 | C211V | -0.71 |
| 70 | C211W | -4.09 |
| 71 | G212N | -6.42 |
| 72 | A218M | -6.21 |
| 73 | S224G | -3.41 |
| 74 | E225A | -4.38 |
| 75 | V226A | -5.35 |
| 76 | L229D | -1.35 |
| 77 | P233H | -5.91 |
| 78 | G234* | -7.20 |
| 79 | R238I | 2.21 |
| 80 | N239C | -2.33 |
| 81 | I240N | -6.75 |
| 82 | L243K | -2.59 |
| 83 | G245* | -8.00 |
| 84 | G245L | -6.93 |
| 85 | I246F | 0.40 |
| 86 | A258K | -5.08 |
| 87 | T265* | -4.79 |
| 88 | S266N | -5.18 |
| 89 | G267E | -5.33 |
| 90 | G267V | -7.06 |
| 91 | L271Q | -3.13 |
| 92 | D272T | -4.23 |
| 93 | C274R | -1.40 |
| 94 | C274S | -0.44 |
| 95 | R276W | -5.15 |
| 96 | I278R | -6.46 |
| 97 | I278Y | -4.61 |
| 98 | G282M | -3.61 |
| 99 | G282V | -5.94 |
| 100 | G290I | -5.07 |
| 101 | Y292* | -6.37 |
| 102 | A295E | -5.01 |
| 103 | I296N | -4.42 |
| 104 | E304L | 0.13 |
| 105 | T305F | -0.99 |
| 106 | P306* | -6.73 |
| 107 | P306R | -3.59 |
| 108 | E308S | 0.33 |

A selection of 14 entries from above:

With A218M the assay gave -6.21.
With A11Q the assay gave -5.78.
With Y53W the assay gave -3.30.
With L75R the assay gave -8.04.
With G282M the assay gave -3.61.
With R131G the assay gave -6.65.
With G267V the assay gave -7.06.
With D272T the assay gave -4.23.
With I246F the assay gave 0.40.
With A295E the assay gave -5.01.
With I296N the assay gave -4.42.
With S164G the assay gave -2.03.
With G47E the assay gave -4.98.
With C274R the assay gave -1.40.

The region was split into three libraries (1-103, 104-206, 207-308).
The authors count -1 or higher as tolerated. Position 1 is the last residue of NS2A.
Stop codons (*) centre on -7 and mark the level of dead virus.
Six mutants with high scores were retested singly and none clearly outgrew wild type, so positive values are not proof of better growth.